Anti-infective test results gathered from many reports (values: NIAID ChemDB through PubChem).

Shared fields: growth or infection tests; species: Aspergillus niger

A number after MIC or MFC names an inhibition level or a share of isolates.

| SMILES | read-out | method | strain | result |
|---|---|---|---|---|
| Oc1cccc2ccc(Cl)nc12 | MIC |  | ATCC 1004 | >100 µg/mL |
| OC(Cn1cncn1)(Cn1cncn1)c1ccc(F)cc1F | MIC100 | broth dilution | CCAM 080002 | 1.25 µg/mL |
| COc1ccc(C2=[N+]([O-])c3ccccc3C2=O)cc1 | MIC |  |  | >125 µg/mL |
| COC(=O)[C@]1(C)CCC[C@]2(C)c3ccc(C(C)C)cc3-c3[nH]c4c(Br)cccc4c3C12 | MIC |  | CGMCC3.316 | >100 µg/mL |
| O=C(O)c1ccc(NC(=S)N/N=C/c2ccc(OO)cc2)cc1 | MIC | agar diffusion |  | 3.12 µM |
| CCC(C)n1ncn(-c2ccc(N3CCN(c4ccc(OC[C@H]5CO[C@](Cn6cncn6)(c6ccc(Cl)cc6Cl)O5)cc4)CC3)cc2)c1=O | MIC |  |  | 8 µg/mL |
| Oc1c(Cl)ccc2cccnc12 | MIC |  | ATCC 1004 | 3 µg/mL |
| O=C1C(=O)c2ccccc2-c2ccccc21 | MIC | visual reading | KACC 40280 | 20 µg/mL |
| CC1=C(Nc2ccccc2)C(=O)c2ccccc2C1=O | MIC100 | broth dilution | MTCC 404 | 125 µg/mL |
| N#[N+]c1nc(-c2ccc(F)cc2)[nH]c1C(=O)N1CCCC1 | MIC |  | L32 | 25 µg/mL |
| O=C1C=C(NCCN2CCOCC2)C(=O)c2ccccc21 | MIC100 | broth dilution | MTCC 404 | 62.5 µg/mL |
| Cc1nc([N+]#N)c(C(=O)N2CCCC2)[nH]1 | MIC |  | L32 | 100 µg/mL |
| O=C1C(c2ccc(Cl)cc2)=[N+]([O-])c2ccccc21 | MFC |  |  | >50 µg/mL |
| C[C@H]1[C@H](O)[C@@H](C)/C=C/C=C/C=C/C=C/C=C/C=C/C=C/[C@H](O[C@@H]2O[C@H](C)[C@@H](O)[C@H](N)[C@@H]2O)C[C@@H]2O[C@](O)(C[C@@H](O)C[C@@H](O)CC[C@H](O)[C@@H](O)C[C@@H](O)CC(=O)O[C@H]1C)C[C@H](O)[C@H]2C(=O)O | MIC90 |  |  | 0.5–2 µg/mL |
| CN(C/C=C/C#CC(C)(C)C)Cc1cccc2ccccc12 | MIC | broth dilution |  | 12.5 µg/mL |
| COc1ccccc1N1CCN(CCCCN2C(=O)CCC(c3ccccc3)C2=O)CC1 | MIC |  | DSM 1988 | >100 µM |
| Cl.NCCS | MIC |  | MTCC 1349 | 670 µg/mL |
| O=C(NO)c1ccc(NC(=S)N/N=C/c2ccccc2)cc1 | MIC | agar diffusion |  | 1.45 µM |
| COc1ccccc1N1CCN(CCCN2C(=O)CCC(c3ccccc3)C2=O)CC1 | MIC |  | DSM 1988 | >100 µM |
| C/C(=N\NC(=S)Nc1ccc(C(=O)NO)cc1)c1ccccc1 | MIC | agar diffusion |  | 1.44 µM |
| CNc1ccc(C(=O)CC(O)CC[C@H](C)[C@H]2OC(=O)C[C@H](O)CC(=O)CC(O)CC(O)CC(O)CC(O)C[C@]3(O)C[C@H](O)[C@@H](C(=O)NCCN(C)C)[C@H](C[C@@H](O[C@@H]4OC(C)[C@@H](O)[C@H](NC(=O)CN(C)C)[C@@H]4O)/C=C/C=C/C=C/C=C/C=C/C=C/C=C/[C@@H]2C)O3)cc1.O=C1O[C@H]([C@@H](O)CO)C(O)=C1O.O=C1O[C@H]([C@@H](O)CO)C(O)=C1O | MIC | broth dilution | TIMM 2814 | 0.0625 µg/mL |
| O=C1C(c2ccc(Oc3ccccc3)cc2)=[N+]([O-])c2ccccc21 | MFC |  |  | >500 µg/mL |
| CC1=C(Cl)C(O)=CC(=O)C12Oc1cc(O)c(Cl)c(C)c1C2=O | MIC | broth dilution | MTCC 282 | 100 µg/mL |
| COC(=O)[C@]1(C)CCC[C@]2(C)c3ccc(C(C)C)cc3-c3[nH]c4ccccc4c3C12 | MIC |  | CGMCC3.316 | >100 µg/mL |
| COc1ccc(/C=N/NC(=S)Nc2ccc(C(=O)O)cc2)cc1OC | MIC | agar diffusion |  | 1.29 µM |
| COc1ccc2c(c1)C(=O)C(c1ccc(-c3ccc(Cl)cc3)cc1)=[N+]2[O-] | MIC |  |  | >62.5 µg/mL |
| Cc1ccc(C(C)C)c(O)c1 | EC50 |  |  | 0.6 µg/mL |
| Clc1ccc(COc2cccc3cccnc23)cc1 | MIC | broth dilution |  | >100 µg/mL |
| COc1ccc2c(c1)C(=O)C(c1cccnc1)=[N+]2[O-] | MIC |  |  | >125 µg/mL |
| N#[N+]c1nc(-c2ccccc2F)[nH]c1C(=O)N1CCCC1 | MIC |  | L32 | >200 µg/mL |
| O=C(O)c1ccc(NC(=S)N/N=C/c2ccccc2)cc1 | MIC | agar diffusion |  | 2.89 µM |
| CCOC(=O)Cn1nnc(Cn2cc(C(C)=O)c3ccccc32)n1 | MIC99 | agar |  | 110 µg/mL |
| COc1ccc([Se][Se]c2ccc(OC)cc2)cc1 | MFC | broth dilution |  | >64 µg/mL |
| Oc1cccc2cc(Br)cnc12 | MIC |  | ATCC 1004 | 7 µg/mL |
| N#[N+]c1nc[nH]c1C(=O)N1CCCC1 | MIC |  | L32 | 200 µg/mL |
| CC(=O)OC1OC(Sc2nnc(Cn3nnc(Cn4cc(C(C)=O)c5ccccc54)n3)n2-c2ccc(Cl)cc2)C(OC(C)=O)C(OC(C)=O)C1OC(C)=O | MIC99 | agar |  | 150 µg/mL |
| Nc1[nH]c(=O)ncc1F | MIC |  |  | 4–64 µg/mL |
| C[C@@H]1[C@H](O)[C@@H](C)/C=C/C=C/C=C/C=C/C=C/C=C/C=C/[C@H](O[C@@H]2O[C@H](C)[C@@H](O)[C@H](N)[C@@H]2O)C[C@@H]2O[C@](O)(C[C@@H](O)[C@H](O)CC[C@@H](O)C[C@@H](O)C[C@@H](O)CC(=O)O[C@H]1C)C[C@H](O)[C@H]2C(=O)O | MIC | broth dilution | ATCC 16404 | 2 µg/mL |
| Cc1ccc(-c2nc([N+]#N)c(C(=O)N3CCCC3)[nH]2)cc1 | MIC |  | L32 | 100 µg/mL |
| CC1=CC=C(C(C)C)CC1 | EC50 |  |  | 1.2 µg/mL |
| O=c1c2ccccc2[se]n1CO | MIC | agar |  | 228 µg/mL |
| c1ccc(-c2ccc(C(c3ccccc3)n3ccnc3)cc2)cc1 | MIC |  |  | 3.125 µg/mL |
| CCC(C)CC(C)CCCCCCCCC(=O)N[C@H]1C[C@@H](O)[C@H](NCCN)NC(=O)[C@@H]2[C@@H](O)CCN2C(=O)[C@H]([C@H](O)CCN)NC(=O)[C@H]([C@H](O)[C@@H](O)c2ccc(O)cc2)NC(=O)[C@@H]2C[C@@H](O)CN2C(=O)[C@H]([C@@H](C)O)NC1=O | MIC |  |  | 0.015–8 µg/mL |
| COC(=O)Cn1[se]c2ccccc2c1=O | MIC | agar |  | 17 µg/mL |
| C/C(=N\NC(=S)Nc1ccc(C(=O)O)cc1)c1ccc(Cl)cc1 | MIC | agar diffusion |  | 2.84 µM |
| O=C1CCC(c2ccccc2)C(=O)N1CCCCN1CCN(c2ccccc2O)CC1 | MIC |  | DSM 1988 | >100 µM |
| CC(C)=CCC/C(C)=C/CO | MIC | broth dilution | IOA-3 | 144 µg/mL |
| CC(C)n1[se]c2ccccc2c1=O | MIC | agar |  | 15 µg/mL |
| CN(C)c1ccc(/C=N/NC(=S)Nc2ccc(C(=O)NO)cc2)cc1 | MIC | agar diffusion |  | 1.69 µM |
| c1ccc(COc2cccc3cccnc23)cc1 | MIC | broth dilution |  | 12.5 µg/mL |
| COC(=O)[C@]1(C)CCC[C@]2(C)c3ccc(C(C)C)cc3-c3[nH]c4c(C)cccc4c3C12 | MIC |  | CGMCC3.316 | >100 µg/mL |
| Clc1ccc([Se][Se]c2ccc(Cl)cc2)cc1 | MIC | broth dilution |  | >64 µg/mL |
| Oc1cc(Br)cc2cccnc12 | MIC |  | ATCC 1004 | 2 µg/mL |
| COC(=O)[C@]1(C)CCC[C@]2(C)c3ccc(C(C)C)cc3-c3[nH]c4ccc(F)cc4c3C12 | MIC |  | CGMCC3.316 | >100 µg/mL |
| CN(C)CCn1[se]c2ccccc2c1=O | MIC | agar |  | >512 µg/mL |
| O=C1CCC(c2ccccc2)C(=O)N1CCCN1CCN(c2ncccn2)CC1 | MIC |  | DSM 1988 | >100 µM |
| Oc1cccc2c(Cl)ccnc12 | MIC |  | ATCC 1004 | 4 µg/mL |
| Cc1ccc(/C(Cl)=N/NC(=S)Nc2ccc(C(=O)NO)cc2)cc1 | MIC | agar diffusion |  | 1.67 µM |
| COC(=O)[C@]1(C)CCC[C@]2(C)c3ccc(C(C)C)cc3-c3[nH]c4c(OC)cccc4c3C12 | MIC |  | CGMCC3.316 | >100 µg/mL |
| FC(F)(F)c1ccc(COc2cccc3cccnc23)cc1 | MIC | broth dilution |  | >100 µg/mL |
| C[C@@H](c1ncncc1F)[C@](O)(Cn1cncn1)c1ccc(F)cc1F | MIC |  |  | 0.125–4 µg/mL |
| Oc1cccc2oc(-c3ccccc3)cc(=Nc3ccccc3N=c3cc(-c4ccccc4)oc4cccc(O)c34)c12 | MIC | agar diffusion |  | 60 µg/mL |
| c1ccc(-c2cccc(COc3cccc4cccnc34)c2)cc1 | MIC | broth dilution |  | >100 µg/mL |
| C[C@@H]1[C@H](O)[C@@H](C)/C=C/C=C/CC/C=C/C=C/C=C/C=C/C(O[C@H]2O[C@H](C)[C@@H](O)[C@H](N)[C@@H]2O)CC2O[C@](O)(CC(O)C(O)CCC(O)CC(O)CC(O)CC(=O)O[C@H]1C)CC(O)C2C(=O)O | MIC |  |  | 10 µM |

A second listing of 8 rows from above:

| SMILES | read-out | method | strain | result |
|---|---|---|---|---|
| Cl.NCCS | MIC |  | MTCC 1349 | 670 µg/mL |
| FC(F)(F)c1ccc(COc2cccc3cccnc23)cc1 | MIC | broth dilution |  | >100 µg/mL |
| Cc1nc([N+]#N)c(C(=O)N2CCCC2)[nH]1 | MIC |  | L32 | 100 µg/mL |
| Oc1c(Cl)ccc2cccnc12 | MIC |  | ATCC 1004 | 3 µg/mL |
| COc1ccccc1N1CCN(CCCN2C(=O)CCC(c3ccccc3)C2=O)CC1 | MIC |  | DSM 1988 | >100 µM |
| C[C@@H](c1ncncc1F)[C@](O)(Cn1cncn1)c1ccc(F)cc1F | MIC |  |  | 0.125–4 µg/mL |
| N#[N+]c1nc(-c2ccc(F)cc2)[nH]c1C(=O)N1CCCC1 | MIC |  | L32 | 25 µg/mL |
| O=C1CCC(c2ccccc2)C(=O)N1CCCN1CCN(c2ncccn2)CC1 | MIC |  | DSM 1988 | >100 µM |

Blank or dashed fields: not listed here. ECn: concentration that inhibits the pathogen or its effect by n%. Lines come from different laboratories, so protocols vary. Two numbers with a dash give a range or band.